# Measurements taken from ChEMBL document CHEMBL1201862, “PubChem BioAssay data set” (2004).
# Activity calls are given as the source filed them. How the calls were made is not given here.
# Key:
# [1] = THP-1 cell cytotoxicity, dose response, cytotoxicity control for non-replicating M. tuberculosis project (AID 489025); assay type: functional
# [2] = Vero E6 cell cytotoxicity, dose response, cytotoxicity control for non-replicating M. tuberculosis project, secondary assay (AID 492998); assay type: functional, VeroE6; settings: Vero C1008
smiles,measurement,setting,value
O=C(Nc1cccnc1)c1ccc([N+](=O)[O-])s1,CC50,[1],active: 13.5 µM
same,CC50,[2],active: 8.54 µM
